Laboratory results: BindingDB's records for doi:10.1021/jm900517t

Target: T1, Genome polyprotein [2420-2989,M2842K,R2963Q] (Hepatitis C virus genotype 1b (isolate BK), UniProt P26663, M2842K/R2963Q)
T1 construct: 2420-2989
Experiment: HCV RNA-Dependent RNA Polymerase Assay (IC50)
Settings: pH 7.5; 23 °C

In the case of `O=C1c2cccc3c(NCCO)ccc(c23)C(=O)N1c1cccc(Br)c1`, the IC50 is reported as greater than 1000 nM.
